{
  "source": "patent US20120148530A1",
  "about": "“Method for the treatment or prevention of virus infection using polybiguanide-based compounds” (Novaflux Biosciences, Inc., priority 2003, published 2012)",
  "key": {"P4R5 cells": {"tested_on": "P4R5 cells", "assay": "P4R5 cell viability, MTT", "conditions": "P4-R5 cells", "excerpt": "To build on the information provided by the monomeric biguanide data a series of polybiguanide molecules were synthesized with varied linker length as described in Example 1. In these molecules the methylene spacer arms between the biguanide functionalities (X and Y in Forumla I) have been changed.\nAs described above the effect of PEHMB and related compounds on P4R5 cell viability after a two-hour exposure to the compound was compared to the effects of control compounds such as N-9. […] To further evaluate the effect of this class of compound on various types of cells (in particular PEHMB P4-R5 cells, ME-180 cells (ATCC HTB-33; cervical epidermoid carcinoma), VK2/E6E7 human vaginal cell line (Fichorova et al. 1997 Biol. Reprod. 57:847-855), and human primary vaginal karatinocytes (isolated from tissues obtained from vaginal reconstructive surgery)) the compounds were incubated with the different cells for various lengths of time before assessment of cell viability."}, "ME-180 cells": {"tested_on": "ME-180 cells", "assay": "ME-180 cell viability", "type": "cell-based"}, "[1]": {"tested_on": "Primary vaginal keratinocytes", "assay": "Primary vaginal keratinocyte viability", "type": "cell-based, human"}, "Vk2/E6E7 cells": {"tested_on": "Vk2/E6E7 cells", "assay": "Vk2/E6E7 cell viability"}},
  "data": [
    {"substance": "dextran sulfate", "values": [
      {"measurement": "CC50 % 6 hr exposure", "setting": "P4R5 cells", "result": ">1.0", "unit": "%"},
      {"measurement": "CC50 % 10 minute exposure", "setting": "ME-180 cells; 10 minute exposure", "result": "~2.0", "unit": "%"},
      {"measurement": "CC50 % 2 hr exposure", "setting": "ME-180 cells; 2 hr exposure", "result": 2.0, "unit": "%"},
      {"measurement": "CC50 % 6 hr exposure", "setting": "ME-180 cells; 6 hr exposure", "result": ">1.0", "unit": "%"},
      {"measurement": "CC50 % 2 hr exposure", "setting": "[1]", "result": 0.7, "unit": "%"},
      {"measurement": "CC50 % 10 minute exposure", "setting": "Vk2/E6E7 cells; 10 minute exposure", "result": "~2.0", "unit": "%"},
      {"measurement": "CC50 % 2 hr exposure", "setting": "Vk2/E6E7 cells; 2 hr exposure", "result": ">1.0", "unit": "%"},
      {"measurement": "CC50 % 6 hr exposure", "setting": "Vk2/E6E7 cells; 6 hr exposure", "result": ">1.0", "unit": "%"}
    ]}
  ]
}
